Experimental data from patent publication US9382245B2, “Compounds and methods for treating HIV infections” (priority 2013, dated 2016).

Tested on: human MT-2 T-cells
Details: Table 4; 50% inhibition of MT-2 cell growth

## Cc1cc(C#N)cc(C)c1Oc1nc(Nc2ccc(C#N)cc2)nc(N)c1Br [etravirine, reference compound]
  CC50: 11 µM
